Counter-ions that a name gives are not always drawn. Like-named read-outs stand apart in the source and are kept apart here.
Tested on: JEV strain AT31
[1] = Primary screening of 1034 compounds in the natural extracts library

Compound | Inhibition (%) [1] | further results
CC(C)(O[C@@H]1O[C@H](CO)[C@@H](O)[C@H](O)[C@H]1O)[C@@H]1CC[C@](O)(CO)[C@H]2CC(=O)[C@@](C)(O)[C@@H]2C1 [atractyloside A] | 11.6079% | –
CC(=O)OC/C=C/c1ccccc1 [Cinnamyl acetate] | -9.255% | –
O=c1c(-c2ccc(O)c(O)c2)coc2c([C@@H]3O[C@H](CO)[C@@H](O)[C@H](O)[C@H]3O)c(O)ccc12 [3'-hydroxy Puerarin] | 9.685% | –
CC(C)=CCC[C@@](C)(O)[C@H]1CC[C@]2(C)[C@@H]1[C@H](O)C[C@@H]1[C@@]3(C)CC[C@H](O)C(C)(C)[C@@H]3[C@@H](O[C@@H]3O[C@H](CO)[C@@H](O)[C@H](O)[C@H]3O)C[C@]12C [20(R)Ginsenoside Rh1] | -11.8935% | –
CN1C2CCC1CC(OC(=O)C(CO)c1ccccc1)C2.O=S(=O)(O)O (centres unmarked) [Hyoscyamine sulfate hydrate] | -16.3051% | –
C=C[C@@H]1C2=CCOC(=O)C2=CO[C@H]1O[C@@H]1O[C@H](CO[C@@H]2O[C@H](CO)[C@@H](O)[C@H](O)[C@H]2O)[C@@H](O)[C@H](O)[C@H]1O [6'-O-β-D-Glucosylgentiopicroside] | -12.5741% | –
O=Cc1ccc(CO)o1 [5-Hydroxymethylfurfural] | 8.015% | –
COc1ccc(-c2cc(=O)c3c(O)cc(O)c(-c4cc(-c5cc(=O)c6c(O)cc(OC)cc6o5)ccc4OC)c3o2)cc1 [Sciadopitysin] | 7.587% | –
COC(=O)[C@@]1(C)CC[C@]2(C(=O)O)CC[C@]3(C)C(=CC[C@@H]4[C@@]5(C)C[C@H](O)[C@H](O[C@@H]6OC[C@@H](O[C@@H]7O[C@H](CO)[C@@H](O)[C@H](O)[C@H]7O)[C@H](O)[C@H]6O)[C@@](C)(CO)[C@@H]5CC[C@]43C)[C@@H]2C1 [EsculentosideA] | -5.83% | –
C[C@@H](CO[C@@H]1O[C@H](CO)[C@@H](O)[C@H](O)[C@H]1O)[C@@H]1CC[C@@]2(CC[C@]3(C)[C@H](CC[C@@H]4[C@@]5(C)CC[C@H](O[C@@H]6O[C@H](CO)[C@@H](O)[C@H](O)[C@H]6O[C@@H]6OC[C@@H](O)[C@H](O)[C@H]6O)[C@@](C)(CO[C@@H]6O[C@H](CO)[C@@H](O)[C@H](O)[C@H]6O)[C@@H]5CC[C@]43C)[C@H]2O)CO1 [Hosenkoside M] | -6.853% | –
CCCCCCCCCCCCCc1cccc(O)c1C(=O)O [Ginkgolic Acid C13:0] | -142.743% | –
Tubeimoside I | -148.437% | –
COC[C@]12CN(C)[C@@H]3[C@@H]4[C@H](OC)[C@H]1[C@@]3([C@@H](OC)C[C@H]2O)[C@@H]1C[C@@]2(O)[C@H](OC(=O)c3ccccc3)[C@@H]1[C@]4(OC(C)=O)[C@@H](O)[C@@H]2OC [Mesaconitine] | 60.7058% | –
C[N+](C)(C)CC(=O)O [Betaine hydrochloride] | 51.0034% | –
C=C(C)[C@@H]1CC[C@]2(C(=O)O[C@@H]3O[C@H](CO[C@@H]4O[C@H](CO)[C@@H](O[C@@H]5O[C@@H](C)[C@H](O)[C@@H](O)[C@H]5O)[C@H](O)[C@H]4O)[C@@H](O)[C@H](O)[C@H]3O)CC[C@]3(C)[C@H](CC[C@@H]4[C@@]5(C)CC[C@H](O[C@@H]6OC[C@H](O)[C@H](O)[C@H]6O[C@@H]6O[C@@H](C)[C@H](O)[C@@H](O)[C@H]6O)[C@@](C)(CO)[C@@H]5CC[C@]43C)[C@@H]12 [Anemoside B4] | -18.6799% | –
O=c1c(-c2ccc(O)cc2)coc2c([C@@H]3O[C@H](CO[C@@H]4OC[C@](O)(CO)[C@H]4O)[C@@H](O)[C@H](O)[C@H]3O)c(O)ccc12 [Mirificin] | -8.471% | –
O=c1cc(-c2ccccc2)oc2cc(O[C@@H]3O[C@H](CO[C@@H]4O[C@H](CO)[C@@H](O)[C@H](O)[C@H]4O)[C@@H](O)[C@H](O)[C@H]3O)c(O)c(O)c12 [Oroxin B] | 13.4935% | –
COc1ccc(-c2coc3cc(O)cc(O)c3c2=O)cc1 [Biochanin A] | 62.9444% | –

Compound | Inhibition (%) [1] | further results
COc1cc2c(cc1O)CCN1Cc3c(ccc(OC)c3OC)C[C@H]21 [(R)-(+)-Corypalmine] | 2.107% | –
COc1cccc2c1cc1c3c(cc4c(c32)OCO4)C(=O)N1 [Aristololactam] | 5.952% | –
CC(=O)O[C@@]1(C)C[C@@H](O)[C@]2(O)C=CO[C@@H](O[C@@H]3O[C@H](CO)[C@@H](O)[C@H](O)[C@H]3O)[C@@H]21 [Acetylharpagide(8-O-Acetylharpagide)] | 8.712% | –
CC1(C)[C@H](OC(=O)c2ccccc2)CC[C@]2(C)C3=C([C@@H](O)C[C@@H]12)[C@@]1(C)CC[C@@]2(C)CC[C@@](C)(COC(=O)c4ccccc4)C[C@H]2[C@]1(C)CC3 [3,29-Dibenzoyl Rarounitriol] | 37.212% | –
Echinocystic acid | – | Inhibition (%): -0.5587%
CC1CCC(C(C)C)C(O)C1 (centres unmarked) [menthol] | – | Inhibition (%) (primary screening of 1034 compounds in the natural extracts library, red numbers = obvious cytotoxicity, blue numbers = insoluble in DMSO (colours not visible)): 4.292%
CCC(C)C(=O)O[C@@H]1[C@@H](OC(C)=O)[C@]2(C)[C@H](C(C)=O)CC[C@@]23O[C@]32CC[C@H]3C[C@@H](O[C@H]4C[C@@H](OC)[C@H](O[C@@H]5O[C@H](C)[C@@H](O)[C@@H](OC)[C@H]5O)[C@@H](C)O4)CC[C@]3(C)[C@@H]12 (some centres unmarked) [Tenacissoside H] | 29.027% | –
Isoliquiritin apioside | – | Inhibition (%): 6.157%
C[C@@H]1CC[C@@]2(OC1)O[C@H]1C[C@H]3[C@@H]4CC=C5C[C@@H](O)C[C@@H](O[C@@H]6O[C@H](C)[C@H](O)[C@H](O[C@@H]7OC[C@@H](O)[C@H](O)[C@H]7O)[C@H]6O[C@@H]6O[C@@H](C)[C@H](O)[C@@H](O)[C@H]6O)[C@]5(C)[C@H]4CC[C@]3(C)[C@H]1[C@@H]2C [Ophiopogonin D] | 14.8422% | –
O=c1c(O[C@@H]2OC[C@@H](O)[C@H](O)[C@H]2O)c(-c2ccc(O)c(O)c2)oc2cc(O)cc(O)c12 [Quercetin 3-O-β-D-xylopyranoside] | -8.981% | –
O=C1C[C@@H](c2ccc(O)cc2)Oc2cc(O[C@@H]3O[C@H](CO)[C@@H](O)[C@H](O)[C@H]3O)ccc21 [Neoliquiritin] | 2.8527% | –
Emodin-1-O-β-D-glucopyranoside | -4.969% | –
Cc1cc(O)c(C(=O)CCC(C)C)c(=O)o1 [Pogostone] | 30.1349% | –
COc1cc2c3cc1Oc1c(OC)c(OC)cc4c1[C@@H](Cc1ccc(O)c(c1)Oc1ccc(cc1)C[C@@H]3N(C)CC2)N(C)CC4 [Berbamine dihydrochloride] | 68.0635% | –
COc1ccc(-c2oc3c(CC=C(C)C)c(O[C@@H]4O[C@H](CO)[C@@H](O)[C@H](O)[C@H]4O)cc(O)c3c(=O)c2O[C@@H]2O[C@@H](C)[C@H](O)[C@@H](O[C@@H]3O[C@H](CO)[C@@H](O)[C@H](O)[C@H]3O)[C@H]2O)cc1 [Epimedin A1] | -17.0377% | –
O=C(O)C=CCCCCCCCO [10-Hydroxy-2-decenoic acid] | 8.183% | –
CC1=C(C(=O)O)C(C)(C)CC[C@H]1O[C@@H]1O[C@H](CO)[C@@H](O)[C@H](O)[C@H]1O [rehmapicroside] | -4.503% | –

From paper PMC7038234, “Screening of Natural Extracts for Inhibitors against Japanese Encephalitis Virus Infection” (Antimicrobial Agents and Chemotherapy, 2020)
